Data on one sequence can be found in US20080063643A1, “Peptide Derived From Hepatitis C Virus” (priority 2003, published 2008).

In this data set the test system is antibody reactive to C-35 peptide. Put plainly: Double-blind study of the antibody reactive to C-35 peptide in 156 cases (ELISA). To be noted: cutoff mean±3 SD, listed as C-35. It is filed as binding, human.

Regarding YLLPRRGPRL [No. 40], the “Sensitivity (detection rate) of the antibody reactive to the peptide” value is listed as 93.3% and the “Sensitivity (second line of Table 2; HCV specificity in the text)” value is on record as 88.5%.
